Anti-infective test results gathered from many reports (values: NIAID ChemDB through PubChem).

All rows: toxicity to cultured cells; cell line: C8166; method: MTT; read-out: CC50

Lines come from different laboratories, so protocols vary. CCn is the concentration with n% toxicity to the cells.

SMILES	result
C/C(=N\NC(=O)c1ccccc1)c1cn(S(=O)(=O)c2ccccc2)c2ccc(C#N)cc12	>200 µg/mL
CCOC1c2c(cc(O)c3c(=O)cc(-c4ccc(O)cc4)oc23)OC(C)(C)C1O	149.5 µM
Cc1ccc2c(/C=N/NC(=O)c3ccccc3)cn(S(=O)(=O)c3cccc([N+](=O)[O-])c3)c2c1	119 µg/mL
CC/C=C\C/C=C\C/C=C\C/C=C\C/C=C\CCCC(=O)O[C@@H]1[C@@H](C)[C@@]2(O)[C@@H](C=C(CO)C[C@]3(O)C(=O)C(C)=C[C@@H]23)[C@@H]2C(C)(C)[C@]12OC(C)=O	26.4 µM
O=C(c1cc2c([nH]c3ccccc32)c(-c2cccs2)n1)N1CCC(c2cccc(Cl)c2Cl)CC1	>400 µM
CCCC(=O)O[C@@]12[C@H](OC(=O)/C=C/c3ccccc3)[C@@H](C)[C@@]3(O)[C@@H](C=C(CO)C[C@]4(O)C(=O)C(C)=C[C@@H]34)[C@@H]1C2(C)C	32.3 µM
CN(Cc1ccc2ccccc2n1)Cc1ncccc1CCC#N	>10 µM
CC1(C)O[C@H]2CC(=O)OC[C@]23[C@H]2CC[C@@]4(C)[C@H](c5ccoc5)OC(=O)[C@H]5O[C@]54[C@]2(C)C(=O)C[C@@H]13	>340.4 µM
COc1cc(C[C@H]2CO[C@@H](O[C@@H](CCc3ccccc3)CC(=O)c3ccc(O)cc3)[C@@H]2Cc2ccc(O)c(OC)c2)ccc1O	9.21 µg/mL
CN(Cc1ncc[nH]1)Cc1ncccc1CCC#N	>10 µM
C=C(C)[C@@]12OC3(C)O[C@@H]1[C@@H]1[C@H](O)[C@@](C)(O)[C@@H](O)[C@@]4(O)[C@@H](C=C(C)[C@@H]4OC(C)=O)[C@@]1(O3)[C@H](C)[C@@H]2OCc1ccccc1	0.3024 µM
O=C(c1cc2c([nH]c3ccccc32)c(-c2cccs2)n1)N1CCC(c2ccccn2)CC1	10.6 µM
COc1ccc(S(=O)(=O)n2cc(/C(C)=N/NC(=O)c3ccccc3)c3ccccc32)cc1	1.3 µg/mL
C=C(C)[C@@]1(O)[C@H](OC(C)=O)[C@@H]2[C@H](OCc3ccccc3)C3(C)O[C@@]4([C@@H]3OCc3ccccc3)[C@@H](OC(C)=O)[C@@H](C)C[C@H]4[C@@]2(O)[C@H](C)[C@@H]1OCc1ccccc1	>0.2512 µM
CCCCCCCCCCCCCCCCCCCC(=O)O[C@@H]1[C@@H](C)[C@@]2(O)[C@@H](C=C(COC(C)=O)C[C@]3(O)C(=O)C(C)=C[C@@H]23)[C@@H]2C(C)(C)[C@]12O	>200 µM
O=C(CCCCc1ccccc1)c1ccc(O)cc1	15.52 µg/mL
O=c1ccc2ccc3c(c2o1)CCO3	>1060 µM
CCCCCCCCC(=O)O[C@@]12[C@H](OC(=O)/C=C/c3ccc(Br)cc3)[C@@H](C)[C@@]3(O)[C@@H](C=C(CO)C[C@]4(O)C(=O)C(C)=C[C@@H]34)[C@@H]1C2(C)C	32.3 µM
COc1ccccc1C1CCN(C(=O)c2cc3c([nH]c4ccccc43)c(-c3cccs3)n2)CC1	>400 µM
CN1CCN(c2ccnc3nc(CN(CCCCN)Cc4ncccc4C4CC4)[nH]c23)CC1	>10 µM
CC/C=C\C/C=C\C/C=C\C/C=C\C/C=C\C/C=C\CCC(=O)O[C@@]12[C@H](O)[C@@H](C)[C@@]3(O)[C@@H](C=C(CO)C[C@]4(O)C(=O)C(C)=C[C@@H]34)[C@@H]1C2(C)C	46.9 µM
CN1CCN(c2ccnc3nc(CN(CCCCN)Cc4c(Cl)cccc4[N+](=O)[O-])[nH]c23)CC1	>10 µM
CC/C=C\C/C=C\C/C=C\C/C=C\C/C=C\C/C=C\CCC(=O)O[C@@H]1[C@@H](C)[C@@]2(O)[C@@H](C=C(CO)C[C@]3(O)C(=O)C(C)=C[C@@H]23)[C@@H]2C(C)(C)[C@]12OC(C)=O	44.12 µM
CN(Cc1nc2ccccc2[nH]1)Cc1ncccc1CCCNC(=O)N(C)C	>10 µM
Cc1ccc(N2CCN(C(=O)c3cc4c([nH]c5ccccc54)c(-c4cccs4)n3)CC2)cc1	>400 µM
CN(Cc1nc2ccccc2[nH]1)Cc1ncccc1CCCN	>10 µM
Cc1ccccc1C1CCN(C(=O)c2cc3c([nH]c4ccccc43)c(-c3cccs3)n2)CC1	>400 µM
CC(C)CC(=O)O[C@@H]1/C=C/C=C/C(=O)O[C@H]2[C@@H](C)C[C@@H]3[C@]2(O)[C@H](O)[C@@]2(CO)O[C@H]2[C@H]2[C@@H](O)[C@@](O)([C@H]4OC(C)(c5ccccc5)O[C@]23[C@@H]4C)[C@](C)(O)C[C@H]2CC[C@H]1[C@H]2C	0.0222 µM
CCCCC/C(=N\NC(=O)c1ccccc1)c1cn(S(=O)(=O)c2ccc(C)cc2)c2ccccc12	>200 µg/mL
O=C1C=C(c2ccc(O)cc2)OC2C=C(O)C=C(O)C12	378.2 µM
CC(=O)O[C@@]12[C@H](OC(=O)CCCCCCCBr)[C@@H](C)[C@@]3(O)[C@@H](C=C(CO)C[C@]4(O)C(=O)C(C)=C[C@@H]34)[C@@H]1C2(C)C	80.6 µM

A second listing of 3 rows from above:

{"SMILES": "CC/C=C\\C/C=C\\C/C=C\\C/C=C\\C/C=C\\C/C=C\\CCC(=O)O[C@@]12[C@H](O)[C@@H](C)[C@@]3(O)[C@@H](C=C(CO)C[C@]4(O)C(=O)C(C)=C[C@@H]34)[C@@H]1C2(C)C", "result": "46.9 µM"}
{"SMILES": "CCCCC/C(=N\\NC(=O)c1ccccc1)c1cn(S(=O)(=O)c2ccc(C)cc2)c2ccccc12", "result": ">200 µg/mL"}
{"SMILES": "CCCCCCCCCCCCCCCCCCCC(=O)O[C@@H]1[C@@H](C)[C@@]2(O)[C@@H](C=C(COC(C)=O)C[C@]3(O)C(=O)C(C)=C[C@@H]23)[C@@H]2C(C)(C)[C@]12O", "result": ">200 µM"}